Compound potency records, mixed from different reports. Data source: NIAID ChemDB in PubChem.

Common to all: growth or infection tests; species: Mycobacterium tuberculosis

An empty or dashed field is not shown.

structure,dose,strain or isolate,endpoint,read by,setting,cells,mutations,result
CC(C)(C)CC(C)(O)CN(CC(C)(O)CC(C)(C)C)C(=S)S,,CS-R,MIC,,,,,3.1 µg/mL
CP(=O)(c1ccccc1)N1CCN(C2c3ccccc3-c3ccccc32)CC1,,H37Rv,MIC,broth dilution,,,,>25.7 µM
O=C(O)c1cn(C2CC2)c2cc(N3CCN(Cc4ccc(CN5CCNCC5)cc4)CC3)c(F)cc2c1=O,6.25 µg/mL,H37Rv,inhibition,,,,,59%
Cc1ccc2c(N3CCOCC3)c(Cc3ccccc3)c(N3CCCCC3)nc2n1,,H37Rv,EC50,BACTEC,,,,>6.25 µg/mL
NC(=S)c1cc(SCc2ccncc2)ccn1,,My 331/88,MIC,,,,,8 µM
Cc1c(C(=O)NC2(C#N)CCCC2)nn(-c2ccc(Cl)cc2Cl)c1-c1ccc(Cl)cc1,,H37Rv,MIC,absorbance,,,,>100 µg/mL
COc1ccc(N2CCN(Cc3ccc([N+](=O)[O-])o3)CC2)cc1,,MDR,MIC,resazurin,,,Isoniazid- and rifampicin-resistant,>25.2 µM
Cc1ccc(C(=O)Nc2ccc(Cl)c(Cl)c2)c(O)c1,,CNCTC MY331/88,MIC,,,,,4 µM
Cc1ccc2oc(=O)n(-c3ccc(C(F)(F)F)cc3)c(=S)c2c1,,My 331/88,MIC,,14 d,,,4 µM
NC(=S)c1cc(SCc2ccccc2F)ccn1,,CNCTC MY331/88,MIC,,,,,3.98 µM
O=c1[nH]c2nc(N3CCNCC3)ccc2cc1-c1ccccc1,6.25 µg/mL,H37Rv,inhibition,BACTEC,,,,11%
NC(=O)CSc1ncnc2c1cnn2CCCCO,,H37Rv,MIC,,,,,>6.25 µg/mL
Clc1ccc2c(Cl)cc(N3CCOCC3)nc2n1,6.25 µg/mL,H37Rv,inhibition,BACTEC,,,,38%
C=C1C(=O)O[C@H]2/C=C(/CO)[C@H](OC(C)=O)C[C@H](O)/C(C)=C\[C@H](OC(=O)[C@@H](C)CC)[C@H]12,,H37Rv,MIC bound,BACTEC,,,,>12.5 µg/mL
OCc1cc(-c2ccc(Cl)cc2)n(-c2ccc(Cl)cc2)n1,,H37Rv,MIC,absorbance,,,,50 µg/mL
NC(=S)c1cc(SCc2ccc([N+](=O)[O-])cc2[N+](=O)[O-])ccn1,,CNCTC MY331/88,MIC,,,,,7.94 µM
COc1ccc2cc1Oc1ccc(cc1)C[C@H]1c3cc(c(OC)cc3CCN1C)Oc1c(OC)c(OC)cc3c1[C@@H](C2)N(C)CC3,12.8 µg/mL,H37Rv,inhibition,BACTEC,,,,41%
CNC(=S)N(Cc1cc2ccccc2nc1Cl)c1ccc(OC)cc1,,H37Ra,MIC,,,,,400 µg/mL
CC1=NN(c2ccc3c(c2)Nc2ccccc2S3)C2NC(=S)NC(c3ccccc3Cl)C12,,H37Rv,MIC,BACTEC / broth dilution / radiometric,,,,<6.25 µg/mL
Cc1c(Cl)ccc2c(=O)c3cccc(CC(=O)O)c3oc12,,H37Rv,MIC bound,BACTEC,,,,>12.5 µg/mL
NC(=O)c1cnccn1,,21 strains (PZA-susceptible),MIC,,,,,12.5–200 µg/mL
CCN(CC)c1ccc(/C=N/NC(=O)C(=O)N/N=C/c2ccc(N(CC)CC)cc2)cc1,,H37Rv,MIC bound,BACTEC,,,,>12.5 µg/mL
c1cc2c(N3CCCCC3)cc(N3CCOCC3)nc2nc1N1CCCCC1,6.25 µg/mL,H37Rv,inhibition,BACTEC,,,,43%
O=C(Nc1ccc(Cl)c(Cl)c1)c1cc([N+](=O)[O-])ccc1O,,CNCTC MY331/88,MIC,,,,,8 µM
COc1cc(O)c2c(c1)C(=O)C1=C(C2=O)C(C)OC(C)C1,,H37Rv,MIC bound,BACTEC,,,,>12.5 µg/mL
C#C[C@@]12O[C@]1(C=O)[C@@H]1[C@@H](O)C[C@H]3C(C)(C)CCC[C@]3(C)[C@H]1CC2=O,,Sensitive strains,MIC,,,,,25 µg/mL
c1cncc(CSc2nc3ccccc3o2)c1,,My 331/88,MIC,,,,,250 µM
O=C1C=C(Nc2cccc(O)c2)c2ccccc2C1=O,6.25 µg/mL,H37Rv,inhibition,resazurin,,,,34%
COc1ccc2oc(=S)n(-c3ccc(F)cc3)c(=S)c2c1,,My 331/88,MIC,,14 d,,,16 µM
Cc1ccc2c(N3CCOCC3)c(C)c(N3CCCCC3)nc2n1,6.25 µg/mL,H37Rv,inhibition,BACTEC,,,,11%
CC1=NN(c2ccc3c(c2)Nc2ccccc2S3)C2NC(=S)NC(c3ccccc3)C12,,H37Rv,MIC,BACTEC / broth dilution / radiometric,,,,>6.25 µg/mL
C/C(=N\NC(=O)c1ccncc1)c1cccc(C(F)(F)F)c1,0.5 µM,,inhibition,BACTEC,,,,93%
CCn1cc(C(=O)O)c(=O)c2cc(F)c(N3CCN(C/C=C/CN4CCN(c5cc6c(cc5F)c(=O)c(C(=O)O)cn6C5CC5)CC4)CC3)cc21,6.25 µg/mL,H37Rv,inhibition,,,,,35%
O=c1oc2ccc(F)cc2c(=S)n1-c1ccc(Br)cc1,,My 331/88,MIC,,14 d,,,1 µM
COC(=O)CNC(=O)c1cc(-c2ccc(Cl)cc2)n(-c2ccc(Cl)cc2)n1,,H37Rv,MIC,absorbance,,,,50 µg/mL
Clc1cc(N2CCOCC2)nc2nc(N3CCCCC3)ccc12,,H37Rv,EC50,BACTEC,,,,>6.25 µg/mL
Cc1ccc(NC(=O)CCl)cc1Cl,,H37Rv,MIC,BACTEC,,VERO,,12.5 µg/mL
O=C(Nc1cccc(Cl)c1)c1cc(Br)ccc1O,,CNCTC MY331/88,MIC,,,,,4 µM
O=NN1CCCS1(=O)=O,12.5 µg/mL,H37Rv,inhibition,BACTEC,,,,8%
Clc1ccc(/C(Cn2ccnc2)=N/OC/C=C/c2ccccc2)c(Cl)c1,,CIP103471,MIC,,,,,8 µg/mL
Cc1ccc(NCc2cc3ccccc3nc2Cl)cc1,,H37Ra,MIC,,,,,>400 µg/mL
Clc1ccc(/C(Cn2ccnc2)=N/OCc2ccc(-c3ccccc3)cc2)cc1,,CIP103471,MIC,,,,,8 µg/mL
O=C(Nc1nncs1)c1ccncc1,,H37Rv,MIC bound,resazurin,,,,>6.25 µg/mL
CCC(Sc1ncnc2c1cnn2COCC(O)CO)C(N)=O,,H37Rv,MIC,,,,,>6.25 µg/mL
S=c1oc2ccc(Br)cc2c(=S)n1-c1cccc(Cl)c1,,My 331/88,MIC,,14 d,,,1 µM
N#Cc1cc(SCc2ccc(Cl)cc2)ccn1,,CNCTC MY331/88,MIC,,,,,30.9 µM
COc1ccc2c(c1)-c1ccccc1C2N1CCN(C(=O)c2ccccc2)CC1,,H37Rv,MIC,broth dilution,,,,>26 µM
Cc1c(C(=O)N2CC[Si](C)(C)CC2)nn(-c2ccc(Cl)cc2Cl)c1-c1ccc(Cl)cc1,,H37Rv,MIC,absorbance,,,,>100 µg/mL
c1cncc(CSc2nc3ccccc3s2)c1,,My 331/88,MIC,,,,,125 µM
NC(=S)c1cc(SCc2cccc([N+](=O)[O-])c2)ccn1,,CNCTC MY331/88,MIC,,,,,3.98 µM
O=c1oc2ccc(Br)cc2c(=S)n1-c1cccc(Cl)c1,,My 331/88,MIC,,21 d,,,1 µM
O=C(O)c1cn(C2CC2)c2c(Cl)c(N3C[C@@H]4CCCN[C@@H]4C3)c(F)cc2c1=O,,Susceptible,MIC50,,,,,0.06 µg/mL
FC(F)(F)c1ccc(-n2c(=S)oc3ccc(Cl)cc3c2=S)cc1,,My 331/88,MIC,,21 d,,,4 µM
N#Cc1cc(SCc2ccccc2)ccn1,,CNCTC MY331/88,MIC,,,,,126 µM
c1ccc(CO/N=C(\Cn2ccnc2)c2ccccc2)cc1,,CIP103471,MIC,,,,,1 µg/mL
Cc1ncc([N+](=O)[O-])n1CCO,,,EC50,broth dilution,,,,17.2 µg/mL
CCc1cc(C(N)=S)ccn1,,H37Ra,MIC,,,,,3.12 µg/mL
CCOC(=O)c1ccc(NC(=O)c2cc(Br)ccc2O)cc1,,CNCTC MY331/88,MIC,,,,,4 µM
Fc1ccc2oc(=S)n(-c3ccc(Cl)cc3)c(=S)c2c1,,My 331/88,MIC,,21 d,,,2 µM
NC(=S)c1cc(SCc2ccccc2)ccn1,,CNCTC MY331/88,MIC,,,,,15.85 µM
CC1=NN(c2ccc3c(c2)Nc2ccccc2S3)C2NC(=S)NC(c3ccc(Cl)cc3)C12,,H37Rv,MIC,BACTEC / broth dilution / radiometric,,,,>6.25 µg/mL
Cc1cc2oc3c(ccc(=O)n3C)c(=O)c2c(C)c1Cl,,H37Rv,MIC bound,BACTEC,,,,>12.5 µg/mL
Cc1c(C(=S)N2CC[Si](C)(C)CC2)nn(-c2ccc(Cl)cc2Cl)c1-c1ccc(Cl)cc1,,H37Rv,MIC,absorbance,,,,>100 µg/mL
NC(=S)c1cc(SCc2ccc([N+](=O)[O-])cc2)ccn1,,CNCTC MY331/88,MIC,,,,,3.98 µM
COc1cccc(N2C(=O)[C@H]3[C@H]4CC(C(C)(C)C)CC[C@H]4c4c([nH]c5ccccc45)[C@H]3C2=O)c1,,H37Rv,MIC bound,BACTEC,,,,>12.5 µg/mL
COc1ccc(NC(=O)c2ccc(OC)cc2O)cc1,,CNCTC MY331/88,MIC,,,,,8 µM
c1cc(CSc2ncn[nH]2)ccn1,,My 331/88,MIC,,,,,1000 µM
Cc1c(C(=O)N2CCCCC2)nn(-c2ccc(Cl)cc2Cl)c1-c1ccc(Cl)cc1,,H37Rv,MIC,absorbance,,,,>200 µg/mL
COc1cc(C(=O)CO[C@H]2CC(C)=CC[C@@]3(C)CC[C@@](O)(C(C)C)[C@H]23)ccc1O,,,EC90,broth dilution,,,,8 µg/mL
O=c1ccc2c(Cl)cc(N3CCOCC3)nc2[nH]1,6.25 µg/mL,H37Rv,inhibition,BACTEC,,,,2%
NNC(=O)Cc1cccnc1,,H37Rv,MIC,BACTEC,,,,≥12.5 µg/mL
CC1=CCC2(C)CCC(O)(C(C)C)C2C(OC(=O)c2ccccc2)C1,,H37Rv,MIC,,,,,0.69 µg/mL
c1ccc(CSc2ncn[nH]2)nc1,,My 331/88,MIC,,,,,1000 µM
O=C1c2n[nH]nc2C(=O)c2n[nH]nc21,12.5 µg/mL,H37Rv,inhibition,BACTEC,,,,0%
Cc1c(C(=O)NCC[Si](C)(C)C)nn(-c2ccc(Cl)cc2Cl)c1-c1ccc(Cl)cc1,,H37Rv,MIC,absorbance,,,,>100 µg/mL
NC(=S)N(Cc1cc2ccccc2nc1Cl)c1ccc(Cl)cc1,,H37Ra,MIC,,,,,100 µg/mL
Nc1c(S(=O)(=O)O)cc2cc(NC(=O)c3ccccc3)ccc2c1O,,H37Rv,MIC bound,BACTEC,,,,>6.25 µg/mL
CNC(=S)N(Cc1cc2ccccc2nc1Cl)c1ccc([N+](=O)[O-])cc1,,H37Ra,MIC,,,,,200 µg/mL
COC(=O)c1ccc(C(=O)OC)c2nc3ccccc3nc12,,H37Rv,MIC bound,BACTEC,,,,>12.5 µg/mL
Clc1nc2ccccc2cc1CNc1ccccc1,,H37Ra,MIC,,,,,>400 µg/mL
CC1=NN(c2ccc3c(c2)Nc2ccccc2S3)C2NC(=S)NC(c3ccc([N+](=O)[O-])cc3)C12,,H37Rv,MIC,BACTEC / broth dilution / radiometric,,,,>6.25 µg/mL
c1ccc(CO/N=C(/Cn2ccnc2)c2ccccc2)cc1,,CIP103471,MIC,,,,,0.5 µg/mL
O=C(O)c1cn(C2CC2)c2cc(N3CCN(C/C=C/CN4CCNCC4)CC3)c(F)cc2c1=O,6.25 µg/mL,H37Rv,inhibition,,,,,33%
CC(C)C[C@H]1C(=O)N2CCC[C@H]2[C@]2(O)O[C@](NC(=O)[C@@H]3C=C4c5cccc6[nH]c(Br)c(c56)C[C@H]4N(C)C3)(C(C)C)C(=O)N12,,H37Rv,MIC bound,BACTEC,,,,>12.8 µg/mL
NNC(=O)c1ccncc1,,H37Ra,MIC,,,,,3.12 µg/mL
CCOC(=O)c1cc2c(-c3ccccc3)c(-c3ccccc3)c(-c3ccccc3)c(-c3ccccc3)n2n1,6.25 µg/mL,H37Rv,inhibition,resazurin,,,,55%
CC(Sc1ncnc2c1cnn2COCC(O)CO)C(N)=O,,H37Rv,MIC,,,,,>6.25 µg/mL
CCCCCCCC(=O)NNC(=O)CCCCCCC,6.25 µg/mL,H37Rv,inhibition,resazurin,,,,7%
NC(=S)c1cc(SCc2ccc(F)c(F)c2)ccn1,,CNCTC MY331/88,MIC,,,,,7.94 µM

Repeating the first 11 entries:

| structure | dose | strain or isolate | endpoint | read by | setting | cells | mutations | result |
|---|---|---|---|---|---|---|---|---|
| CC(C)(C)CC(C)(O)CN(CC(C)(O)CC(C)(C)C)C(=S)S |  | CS-R | MIC |  |  |  |  | 3.1 µg/mL |
| CP(=O)(c1ccccc1)N1CCN(C2c3ccccc3-c3ccccc32)CC1 |  | H37Rv | MIC | broth dilution |  |  |  | >25.7 µM |
| O=C(O)c1cn(C2CC2)c2cc(N3CCN(Cc4ccc(CN5CCNCC5)cc4)CC3)c(F)cc2c1=O | 6.25 µg/mL | H37Rv | inhibition |  |  |  |  | 59% |
| Cc1ccc2c(N3CCOCC3)c(Cc3ccccc3)c(N3CCCCC3)nc2n1 |  | H37Rv | EC50 | BACTEC |  |  |  | >6.25 µg/mL |
| NC(=S)c1cc(SCc2ccncc2)ccn1 |  | My 331/88 | MIC |  |  |  |  | 8 µM |
| Cc1c(C(=O)NC2(C#N)CCCC2)nn(-c2ccc(Cl)cc2Cl)c1-c1ccc(Cl)cc1 |  | H37Rv | MIC | absorbance |  |  |  | >100 µg/mL |
| COc1ccc(N2CCN(Cc3ccc([N+](=O)[O-])o3)CC2)cc1 |  | MDR | MIC | resazurin |  |  | Isoniazid- and rifampicin-resistant | >25.2 µM |
| Cc1ccc(C(=O)Nc2ccc(Cl)c(Cl)c2)c(O)c1 |  | CNCTC MY331/88 | MIC |  |  |  |  | 4 µM |
| Cc1ccc2oc(=O)n(-c3ccc(C(F)(F)F)cc3)c(=S)c2c1 |  | My 331/88 | MIC |  | 14 d |  |  | 4 µM |
| NC(=S)c1cc(SCc2ccccc2F)ccn1 |  | CNCTC MY331/88 | MIC |  |  |  |  | 3.98 µM |
| O=c1[nH]c2nc(N3CCNCC3)ccc2cc1-c1ccccc1 | 6.25 µg/mL | H37Rv | inhibition | BACTEC |  |  |  | 11% |

a–b is a range or a potency band. Neighbouring rows are from separate reports. MIC bound: limit read from a one-dose screen. Inhibition is in % at the dose shown (toxicity tests: loss of growth or viability). A number after MIC or MFC names an inhibition level or a share of isolates. ECn: concentration that inhibits the pathogen or its effect by n%.